Anti-infective test results gathered from many reports (values: NIAID ChemDB through PubChem).

Common to all: tests in culture

Conditions beyond the fields shown may differ between rows. ECn is the concentration giving n% inhibition of infection, replication or growth. MIC50, MIC90 and the like: level of inhibition, or share of isolates inhibited. Inhibition is in % at the dose shown (toxicity tests: loss of growth or viability). An empty or dashed field is not shown.

compound	cells	method	agent	strain	measure	dose	setting	value
Cc1ccc(-n2cc(C(C)(C)O)nn2)cc1C		broth dilution	Candida albicans	URM 4986	inhibition	2048 µg/mL		0%
O=C(NNC(=O)NC1CCCCC1)Nc1cc(C(F)(F)F)cc(C(F)(F)F)c1			Escherichia coli	ES142	MIC			>200 µM
C/C=C/C/C=C/CCC(=O)[C@H]1O[C@H]1C(N)=O			Escherichia coli	CDM5 (TLM-R)	MIC			20 µg/mL
Nc1ncnc2c1ncn2C=C1CC1CO		plaque count	Human cytomegalovirus	VR3480 (ganciclovir-resistant)	EC50			4.3 µM
O=C(NCc1ccc(Cl)cc1)c1c[nH]c2ccc(C#CCO)cc2c1=O		plaque count	Varicella zoster virus	DYE	EC50			0.3 µM
CCC(CC)O[C@@H]1C=C(C(=O)O)C[C@H](N)[C@H]1NC(C)=O	MDCK	plaque count	Influenza B virus	Isolate C35C	EC50			0.055 µg/mL
Fc1cccc(-n2c(=S)oc3ccc(Br)cc3c2=S)c1			Mycobacterium kansasii	My 235/80	MIC		14 d	16 µM
O=C(CC(=O)Nc1cc(C(F)(F)F)cc(C(F)(F)F)c1)Nc1cc(C(F)(F)F)cc(C(F)(F)F)c1			Escherichia coli	ES142	MIC			>300 µM
Cc1cn([C@@H]2O[C@H](CO)[C@@H](O)[C@@H]2F)c(=O)nc1N	HELF	plaque count	Varicella zoster virus	YS	inhibition	0.1 µg/mL		100%
COc1ccc2oc(=O)n(-c3ccc(C)cc3)c(=S)c2c1			Mycobacterium kansasii	My 235/80	MIC		14 d	16 µM
C[C@H]1CN(c2ccc(CNC(=O)c3c(Cl)nc4ccccn34)cc2F)CCN1c1ccc(OC(F)(F)F)cc1.Cl		fluorescence	Mycobacterium avium		inhibition	0.011 µM		85%
C=Cc1cn([C@@H]2O[C@H](CO)[C@@H](O)[C@@H]2O)c(=O)[nH]c1=O	HELF	plaque count	Varicella zoster virus	Kawaguchi	inhibition	0.01 µg/mL		0%
Cc1ccc2oc(=O)n(-c3cccc(F)c3)c(=S)c2c1			Mycobacterium kansasii	My 235/80	MIC		14 d	16 µM
OC[C@H]1O[C@@H](n2c(Cl)nc3cc(Cl)c(Cl)cc32)[C@H](O)[C@@H]1O		plaque count	Human cytomegalovirus	R56	EC50			12 µM
CC(C)(O)c1cn(-c2ccc3ccccc3c2)nn1		broth dilution	Candida krusei	URM 109	inhibition	2048 µg/mL		0%
CCc1nc2cc(F)ccn2c1C(=O)NCc1cc(F)c(N2CCC(c3ccc(OC(F)(F)F)cc3)CC2)c(F)c1.Cl		fluorescence	Mycobacterium avium		inhibition	0.0061 µM		85%
Fc1ccc2oc(=S)n(-c3ccc(Br)cc3)c(=S)c2c1			Mycobacterium kansasii	6509/96	MIC		14 d	2 µM
CC(C)(O)c1cn(-c2ccc([N+](=O)[O-])cc2)nn1		broth dilution	Candida parapsilosis	URM 4608	inhibition	2048 µg/mL		0%
CCOC(=O)c1c(C)nc(NCCCCNc2ccnc3cc(Cl)ccc23)nc1-c1ccccc1[N+](=O)[O-]			Cryptococcus gattii	196L/03	MIC99			8 µg/mL
CC(C)N=C(N)/N=C(\N)NOCCCOc1cc(Cl)c(Cl)cc1Cl			Mycobacterium avium complex	517	MIC			32 µg/mL
CCO/N=C/c1ccc(OCCC2CCN(c3ccc(Cl)nn3)CC2)cc1	KB	neutral red	Rhinovirus	FO2-2513 (ICAM-1 receptor group 69)	EC50			0.052 µM
Cc1cn([C@@H]2O[C@H](CO)[C@@H](O)[C@@H]2O)c(=O)[nH]c1=O	HELF	plaque count	Varicella zoster virus	Kawaguchi	inhibition	1 µg/mL		100%
C=CCc1ccc(O)c(OC)c1		turbidity	Candida tropicalis	341	MIC90			495 µg/mL
N#Cc1cc([N+](=O)[O-])ccc1Oc1ccc(Cl)c(Cl)c1	VERO		Coxsackie virus	TYPE A21	inhibition	3.125 µg/mL		100%
S=c1oc2ccc(Br)cc2c(=S)n1-c1ccc(Br)cc1			Mycobacterium kansasii	6509/96	MIC		14 d	4 µM
CCOC(=O)c1c(C)nc(NCCCCNc2ccnc3cc(Cl)ccc23)nc1-c1ccc(F)cc1			Cryptococcus gattii	1913 ER	MIC99			8 µg/mL
Cn1cc(C(=O)NCc2ccc(Cl)cc2)c(=O)c2cc(CN3CCOCC3)ccc21	HFF	plaque count	Varicella zoster virus	SM varicella isolate	inhibition	2.4 µM		90%
O=C(Nc1ccncc1)Nc1cc(C(F)(F)F)cc(C(F)(F)F)c1			Klebsiella pneumoniae	KL21	MIC			75 µM
CCC(CC)[C@H](NC(C)=O)[C@@H]1[C@H](O)[C@@H](C(=O)O)C[C@H]1N=C(N)N	MDCK	visual reading	Influenza A virus	Influenza A/Victoria/3/75 (H3N2)	EC50			0.09 µM
CCc1nc2cc(F)ccn2c1C(=O)NCc1ccc(C2CCN(c3ccc(C(C)(C)C)cc3)CC2)cc1F.Cl		fluorescence	Mycobacterium avium		inhibition	0.015 µM		85%
CCOC(=O)c1c(C)nc(OCCCNc2ccnc3cc(Cl)ccc23)nc1-c1ccccc1			Cryptococcus gattii	1913 ER	MIC99			8 µg/mL
CCc1nc2cc(F)ccn2c1C(=O)NCc1ccc(N2CCN(c3cc(F)c(OC(F)(F)F)c(F)c3)[C@@H](C)C2)c(F)c1.Cl		fluorescence	Mycobacterium avium		inhibition	0.0065 µM		85%
O=C(Nc1cccc(C2=NCCN2)c1)Nc1cccc(C2=NCCN2)c1			Escherichia coli	ES142	MIC			86 µM
Cc1cc(CCCOc2c(C)cc(-c3noc(C(F)(F)F)n3)cc2C)on1	OHIO HELA-I	cytopathic effect / visual reading	Rhinovirus	Isolate 46	EC50			0.02 µg/mL
O=c1oc2ccc(Br)cc2c(=S)n1-c1ccc(Cl)c(Cl)c1			Mycobacterium kansasii	My 235/80	MIC		14 d	4 µM
Oc1ccccc1N=Cc1ccccc1			Cryptococcus gattii	ATCC 24065	MIC99			8 µg/mL
O=c1[nH]c(=O)n([C@@H]2O[C@H](CO)[C@@H](O)[C@@H]2O)cc1/C=C/Cl	HELF	plaque count	Varicella zoster virus	HIRAI	inhibition	0.0001 µg/mL		4%
COc1ccc(-n2cc(C(C)(C)O)nn2)cc1		broth dilution	Candida parapsilosis	URM 4970	MIC			512 µg/mL
CCc1nc2ccc(Cl)cn2c1C(=O)NCc1ccc(N2CCN(c3ccc(OCC(F)(F)F)cc3)[C@@H](C)C2)c(F)c1.Cl		fluorescence	Mycobacterium avium		inhibition	0.022 µM		85%
CCOC(=O)c1c(C)nc(NCCCCNc2ccnc3cc(Cl)ccc23)nc1-c1ccccc1			Cryptococcus gattii	29/10893	MIC99			4 µg/mL
Nc1nc(=O)n([C@@H]2O[C@H](CO)[C@@H](O)[C@@H]2F)cc1I	HELF	plaque count	Varicella zoster virus	Kawaguchi	inhibition	0.1 µg/mL		98%

A second listing of 6 rows from above:

compound,cells,method,agent,strain,measure,dose,setting,value
Fc1ccc2oc(=S)n(-c3ccc(Br)cc3)c(=S)c2c1,,,Mycobacterium kansasii,6509/96,MIC,,14 d,2 µM
O=C(NCc1ccc(Cl)cc1)c1c[nH]c2ccc(C#CCO)cc2c1=O,,plaque count,Varicella zoster virus,DYE,EC50,,,0.3 µM
COc1ccc(-n2cc(C(C)(C)O)nn2)cc1,,broth dilution,Candida parapsilosis,URM 4970,MIC,,,512 µg/mL
O=c1[nH]c(=O)n([C@@H]2O[C@H](CO)[C@@H](O)[C@@H]2O)cc1/C=C/Cl,HELF,plaque count,Varicella zoster virus,HIRAI,inhibition,0.0001 µg/mL,,4%
Cc1cn([C@@H]2O[C@H](CO)[C@@H](O)[C@@H]2F)c(=O)nc1N,HELF,plaque count,Varicella zoster virus,YS,inhibition,0.1 µg/mL,,100%
Oc1ccccc1N=Cc1ccccc1,,,Cryptococcus gattii,ATCC 24065,MIC99,,,8 µg/mL